One may read the inhibition as the change of the read-out against control, counted positive when it falls.

The structures appear in SMILES notation. The list shows a part of the results, in another mix than the full data. The source made the active and inactive calls.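 The calls were made as follows: active = highest replicate inhibition at or above 60% at 9 µM, even if other replicates fall short; inactive = all replicates below 60% inhibition.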

The test system of this experiment is Kaposi's sarcoma herpesvirus LANA C-terminal domain (residues 932-1162) DNA binding. Kind of experiment: inhibitors of KSHV C-LANA binding to DNA, primary screen, biochemical, fluorescence polarization, FAM-LBS DNA, MBP-C-LANA, single point (AID 504423).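 Also: 0% = neutral control wells and 100% = 4 µM acridine orange control.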 The note with it: at 9 µM, active compounds read high. On the technique in general: In fluorescence polarisation assays a small probe gives low polarisation when free and higher when bound to something large.
For `CCN1CCC(Nc2cccc(F)c2)CC1`, the inhibition is inactive: 1.72%.

For `Cc1ccccc1NC1(C#N)CCN(Cc2ccccc2)CC1`, the inhibition was inactive: 3.5%.

Take `CCOC(=O)N1CCC(Nc2ccc(F)cc2)CC1`: the inhibition was inactive: 0.346%.

`COc1ccc(NC2CCN(CCc3ccccc3)CC2)c(OC)c1`: the inhibition was inactive: 1.24%.

Regarding `CCCCOc1ccc(C(=O)NCC2(N3CCOCC3)CCCCC2)cc1`, the inhibition was inactive: 1.03%.

As to `O=P1(N(CCCl)CCCl)SCCCS1`, the inhibition is inactive: 0.0649%.

Take `O=C(NCC1(N2CCCCC2)CCCCC1)c1ccc(F)cc1`: the inhibition was inactive: -1.32%.

`O=C1CCN(Cc2ccccc2)CC1`: the inhibition is inactive: -2.26%.

In the case of `CCOc1ccc(C)cc1CN(CCCl)CCCl`, the inhibition is inactive: -0.368%.

For `CCOC(=O)N1CCC(Nc2cccc(C)c2)CC1`, the inhibition was inactive: -1.32%.

Consider `COc1cc(C(=O)NCC2(N(C)C)CCCCC2)ccc1OC(F)F`, for which the inhibition is inactive: -0.0994%.

For the compound `Cc1cccc(NC2(C#N)CCN(Cc3ccccc3)CC2)c1`, the inhibition was inactive: -0.844%.

Regarding `CSc1ccccc1C(=O)NCC1(N2CCCCC2)CCCCC1`, the inhibition was inactive: -0.29%.

Turning to `COc1ccc(C(=O)NCC2(N3CCCCC3)CCCCC2)c(OC)c1OC`, the inhibition was inactive: 0.414%.

Take `CC(C)(C)OC(=O)N1CCC(N(C(=O)c2ccccc2)c2ccc(F)cc2)CC1`: the inhibition is inactive: 2.95%.

As for `COc1ccc(C(=O)NCC2(N3CCCCC3)CCCCC2)cc1`, the inhibition is inactive: -0.0421%.

Regarding `O=C(NCC1(N2CCCCC2)CCCCC1)c1cccs1`, the inhibition is inactive: -0.369%.

As to `O=C(NCC1(N2CCCCC2)CCCCC1)c1ccc(=O)[nH]c1`, the inhibition was inactive: 0.709%.

For the compound `COc1ccc(Cl)cc1C(=O)NCC1(N2CCOCC2)CCCCC1`, the inhibition is inactive: 1.68%.

For `N#CC1(Nc2ccccc2)CCN(Cc2ccccc2)CC1`, the inhibition was inactive: -3.93%.

`O=C(NCC1(N2CCCCC2)CCCCC1)c1ccc(Cl)s1`: the inhibition was inactive: -2.36%.

For `O=C(OC1CN2CCC1CC2)C1c2ccccc2Oc2ccccc21` (stereo not given), the inhibition is inactive: 5.06%.

For the compound `CCOC(=O)N1CCC(Nc2ccc(OC)cc2)CC1`, the inhibition is inactive: 1.07%.

On to `Cc1cc(C)cc(N(C(=O)c2ccccc2)C2CCN(C(=O)OC(C)(C)C)CC2)c1`, for which the inhibition is inactive: 0.255%.

Turning to `O=C(NCC1(N2CCCCC2)CCCCC1)c1ccc(Cl)nc1`, the inhibition was inactive: -1.33%.

For `O=C(NCC1(N2CCOCC2)CCCCC1)c1cc2ccccc2o1`, the inhibition was inactive: -0.816%.

On to `O=C(NCC1(N2CCOCC2)CCCCC1)c1cc(F)c(F)cc1Cl`, for which the inhibition is inactive: 0.714%.

On to `COc1cc(OC)c(C(=O)NCC2(N(C)C)CCCCC2)cc1OC`, for which the inhibition is inactive: 1.18%.

For the compound `CC(C)c1ccc(NC2CCN(C(=O)OC(C)(C)C)CC2)cc1`, the inhibition was inactive: 1.17%.

As for `CN(C)c1cccc(C(=O)NCC2(N3CCCCC3)CCCCC2)c1`, the inhibition was inactive: -0.995%.

Take `COc1ccc(CN(CCCl)CCCl)cc1Cl`: the inhibition was inactive: -0.628%.

Consider `CCCOc1ccc(C(=O)NCC2(N(C)C)CCCCC2)cc1OC`, for which the inhibition was inactive: 0.233%.

On to `CN1CCC(Nc2cccc(F)c2)CC1`, for which the inhibition was inactive: 0.735%.

Consider `O=C(NCC1(N2CCCCC2)CCCCC1)c1cncc(Br)c1`, for which the inhibition is inactive: -0.231%.

On to `N#CC1(Nc2ccccc2)CCN(CCc2ccccc2)CC1`, for which the inhibition was inactive: -1.1%.

Consider `CCN1CCC(Nc2ccc(Cl)cc2)CC1`, for which the inhibition is inactive: -1.61%.

In the case of `CSc1ccc(C(=O)NCC2(N3CCOCC3)CCCCC2)cc1`, the inhibition is inactive: 0.225%.

In the case of `O=C(NCC1(N2CCCCC2)CCCCC1)c1cccc([N+](=O)[O-])c1`, the inhibition is inactive: 0.276%.

Regarding `O=C(NCC1(N2CCCCC2)CCCCC1)c1ccc(OC(F)F)cc1`, the inhibition is inactive: -3.12%.

For `O=C(NCC1(N2CCOCC2)CCCCC1)c1cc(=O)[nH]c2ccccc12`, the inhibition was inactive: -0.616%.

As for `COc1cc(C(=O)NCC2(N3CCCCC3)CCCCC2)ccc1OC(F)F`, the inhibition is inactive: -1.16%.

As for `COc1ccc(NC2CCN(C(=O)OC(C)(C)C)CC2)cc1`, the inhibition was inactive: -1.36%.

Consider `CC(C)c1ccc(C(=O)NCC2(N3CCOCC3)CCCCC2)cc1`, for which the inhibition is inactive: -0.131%.

As for `CN1CCN(CCOC(=O)C(O)(c2ccccc2)c2ccccc2)CC1`, the inhibition was inactive: 1.36%.

`O=C(NCC1(N2CCCCC2)CCCCC1)c1cccc(C(F)(F)F)c1`: the inhibition was inactive: 0.267%.

The record behind these values is PubChem BioAssay AID504423 (Broad Institute, 2011).
